Results published in patent US20240417446A1 (US Dept. of Health and Human Services, published 2024).

Molecular target: SARS-CoV-2 S2 subunit of the spike protein (Sino Biological, 40590-V08B) (SARS-CoV-2, UniProt P0DTC2 686-1213)
Assay: Octet (BLI), S2 antigen on streptavidin sensor tips, nanobody in solution

Binder | Kd [nM]
NCI-CoV-S2A9 (VNAR) VNAR: ARVDQTPRSVTKETGESLTINCVLRDASYALGRTCWYRKKSGSTNEESISKGGRYVETVNSGSKSFSLRINDLTVEDGGTYRCGVSTPWSCDYGPLCFYAACGDGTVVTVN | 2.23
NCI-CoV-CG2G2 (VHH) VHH: AVQLVESGGGSVPPGGSLTLSCTVSDNIFRTYAVGWFRQAPEKRCQWIATLNADESTEYNVAVTGRFTISRDNSGRSVYLQMDNLNSEDTAIYYCASLARKWSCHDSWGRGTQVTVSS | 4.86
